Assay results as given in US20030134799A1.

Biological target: NMDA receptor of well-washed rat forebrain membranes (rat) (UniProt Q9R1M7)
Test: cell-based or functional assay

Row | Substance | % inhibition of the maximum stimulation by spermine at 10 nM peptide [%] | % reduction of Gly-stimulated [3H]MK-801 binding at 30 nM peptide [%] | % inhibition of Gly enhanced [3H]MK-801 binding at 10 µM Con-G [%]
1 | Ala7-Con-G (peptide) | 50 | 20 | –
2 | Conantokin-G (peptide) | – | – | 15
